Consider one compound from ChEMBL document CHEMBL1255481, “The M230L nonnucleoside reverse transcriptase inhibitor resistance mutation in HIV-1 reverse transcriptase impairs enzymatic function and viral replicative capacity” (Antimicrob Agents Chemother, 2010).

Experiment [1] concerns the target T1, Human immunodeficiency virus type 1 reverse transcriptase (Human immunodeficiency virus 1, UniProt Q72547). The experiment in a line: Inhibition of RNA-dependent DNA polymerase activity of wild type HIV1 subtype B reverse transcriptase by filter-based filtration assay.
The target in experiment [2] is T2, Human immunodeficiency virus type 1 reverse transcriptase (Human immunodeficiency virus 1, UniProt Q72547, M230L). The experiment in a line: Inhibition of RNA-dependent DNA polymerase activity of HIV1 subtype B reverse transcriptase M230L mutant by filter-based filtration assay.
Experiment [3] has as its target T1, Human immunodeficiency virus type 1 reverse transcriptase. The experiment in a line: Inhibition of DNA-dependent DNA polymerase activity of wild type HIV1 subtype B reverse transcriptase by gel-based primer extension assay.
Experiment [4] concerns the target T2, Human immunodeficiency virus type 1 reverse transcriptase. Kind of experiment: Inhibition of DNA-dependent DNA polymerase activity of HIV1 subtype B reverse transcriptase M230L mutant by gel-based primer extension assay.

Consider `Cc1cc(C#N)cc(C)c1Oc1nc(Nc2ccc(C#N)cc2)nc(N)c1Br` [ETRAVIRINE], for which the IC50 (in general, the concentration needed to halve the response being measured) in experiment [1] worked out at 68 nM; in experiment [2], 696 nM; in experiment [3], 126 nM; in experiment [4], 1320 nM.
